We go through 8 molecules from paper PMC9971899, “Identification and structural analysis of a carbohydrate-binding module specific to alginate, a representative of a new family, CBM96” (The Journal of Biological Chemistry, 2022).

In this data set the test system is TM6-N4. As to the kind of experiment: Isothermal titration calorimetry of alginate and oligoalginate binding to TM6-N4. The arrangement: species or system Defluviitalea phaphyphila. The conditions noted are these: ITC, 25 °C, pH 7.0. As for the experimental part: To characterize the binding of TM6-N4 to alginate, isothermal titration calorimetry (ITC) experiments were carried out at 25 °C and pH 7.0, with alginate and oligoalginate standards including G3, G4, G5, G6, G7, M3, M5, M6, and M7 as substrate and TM6-N4 as the enzyme. […] Nevertheless, G3 produced a profile of CBM–ligand interaction (Fig. 2A). It is thus likely that the binding sites of TM6-N4 required at least three uronic acid units to yield stable binding complexes. […] These discrepancies may reflect the fact that one alginate chain has accommodated several protein molecules and the fact of the thermodynamic instability of the long alginate chain.
Figure 2 Thermograms (upper panels) and binding isotherms with theoretical fits (lower panels) obtained for the binding. G3 (A), G4 (B), G5 (C), G6 (D), G7 (E), M3 (F), M5 (G), M6 (H), M7 (I), and alginate (J) to TM6-N4. The buffer used was 20 mM Tris–HCl buffer, pH 7.0. Protein concentration was 20 μM for TM6-N4.
The proteins were dialyzed extensively against buffer with 20 mM Tris–HCl (pH 7.0) without NaCl and adjusted concentration to 20 μM, and the oligosaccharide ligands (purity ≥95%; Qingdao BZ Oligo Biotech Co Ltd) or alginate ligands (viscosity >0.02 Pa·s, 1% alginate in H2O at 25 °C) were dissolved in the same buffer to minimize heats of dilution with a concentration of 200 μM. To avoid bubble formation, all the samples were degassed by centrifugation at 12,000 rpm/10 min. Calorimetric titration was performed with MicroCal PEAQ-ITC (Malvern Panalytical). During a titration experiment, the protein sample was stirred at a speed of 750 rpm and kept a constant temperature of 25 °C, and the titration needle was filled with 80 μl oligosaccharide or alginate ligand. Titrations were completed after 19 injections (each 3 μl) at an interval of 150 s. The data were analyzed by using the one-site binding model in the MicroCal PEAQ-ITC Analysis software. The fitted data yielded the dissociation constant (Kd), the number of binding sites on the protein (n), and the enthalpy of binding (ΔH). Other thermodynamic parameters can be calculated by using the standard thermodynamic equation ΔG = −RTln Ka = ΔH-TΔS. Titrations were carried out in triplicate for most ligands, and the errors are the SD of the mean of these replicates.
For `O=C(O)[C@H]1O[C@@H](O[C@H]2[C@H](O)[C@H](O)[C@H](O[C@H]3[C@H](O)[C@H](O)[C@H](O[C@H]4[C@H](O)[C@H](O)[C@H](O[C@H]5[C@H](O)[C@H](O)[C@H](O[C@H]6[C@H](O)[C@H](O)[C@H](O[C@H]7[C@H](O)[C@H](O)C(O)O[C@@H]7C(=O)O)O[C@@H]6C(=O)O)O[C@@H]5C(=O)O)O[C@@H]4C(=O)O)O[C@@H]3C(=O)O)O[C@@H]2C(=O)O)[C@@H](O)[C@@H](O)[C@@H]1O` (some centres unmarked) [M7], the “N (number of binding sites)” value is on record as 0.5 ± 0.05 site. As for `O=C(O)[C@H]1O[C@@H](O[C@H]2[C@H](O)[C@H](O)[C@H](O[C@H]3[C@H](O)[C@H](O)[C@H](O[C@H]4[C@H](O)[C@H](O)[C@H](O[C@H]5[C@H](O)[C@H](O)C(O)O[C@@H]5C(=O)O)O[C@@H]4C(=O)O)O[C@@H]3C(=O)O)O[C@@H]2C(=O)O)[C@@H](O)[C@@H](O)[C@@H]1O` (some centres unmarked) [M5, mannuronate pentasaccharide], the figure is 0.6 ± 0.04 site; as for `O=C(O)[C@@H]1O[C@@H](O[C@H]2[C@H](O)[C@H](O)[C@H](O[C@H]3[C@H](O)[C@H](O)[C@H](O[C@H]4[C@H](O)[C@H](O)[C@H](O[C@H]5[C@H](O)[C@H](O)[C@H](O[C@H]6[C@H](O)[C@H](O)C(O)O[C@H]6C(=O)O)O[C@H]5C(=O)O)O[C@H]4C(=O)O)O[C@H]3C(=O)O)O[C@H]2C(=O)O)[C@@H](O)[C@@H](O)[C@@H]1O` (some centres unmarked) [G6], 1.0 ± 0.02 site; as for `O=C(O)[C@@H]1O[C@@H](O[C@H]2[C@H](O)[C@H](O)[C@H](O[C@H]3[C@H](O)[C@H](O)[C@H](O[C@H]4[C@H](O)[C@H](O)[C@H](O[C@H]5[C@H](O)[C@H](O)C(O)O[C@H]5C(=O)O)O[C@H]4C(=O)O)O[C@H]3C(=O)O)O[C@H]2C(=O)O)[C@@H](O)[C@@H](O)[C@@H]1O` (some centres unmarked) [G5], 0.9 ± 0.02 site. As for `O=C(O)[C@H]1O[C@@H](O[C@H]2[C@H](O)[C@H](O)[C@H](O[C@H]3[C@H](O)[C@H](O)[C@H](O[C@H]4[C@H](O)[C@H](O)[C@H](O[C@H]5[C@H](O)[C@H](O)[C@H](O[C@H]6[C@H](O)[C@H](O)C(O)O[C@@H]6C(=O)O)O[C@@H]5C(=O)O)O[C@@H]4C(=O)O)O[C@@H]3C(=O)O)O[C@@H]2C(=O)O)[C@@H](O)[C@@H](O)[C@@H]1O` (some centres unmarked) [M6], the figure is 0.5 ± 0.02 site.

As to `O=C(O)[C@@H]1O[C@@H](O[C@H]2[C@H](O)[C@H](O)[C@H](O[C@H]3[C@H](O)[C@H](O)C(O)O[C@H]3C(=O)O)O[C@H]2C(=O)O)[C@@H](O)[C@@H](O)[C@@H]1O` (some centres unmarked) [G3], the “N (number of binding sites)” value is given as 0.3 ± 0.04 site.

On to `O=C(O)[C@@H]1O[C@@H](O[C@H]2[C@H](O)[C@H](O)[C@H](O[C@H]3[C@H](O)[C@H](O)[C@H](O[C@H]4[C@H](O)[C@H](O)C(O)O[C@H]4C(=O)O)O[C@H]3C(=O)O)O[C@H]2C(=O)O)[C@@H](O)[C@@H](O)[C@@H]1O` (some centres unmarked) [G4], for which the “N (number of binding sites)” value came out at 1.2 ± 0.02 site.

Take `O=C(O)[C@@H]1O[C@@H](O[C@H]2[C@H](O)[C@H](O)[C@H](O[C@H]3[C@H](O)[C@H](O)[C@H](O[C@H]4[C@H](O)[C@H](O)[C@H](O[C@H]5[C@H](O)[C@H](O)[C@H](O[C@H]6[C@H](O)[C@H](O)[C@H](O[C@H]7[C@H](O)[C@H](O)C(O)O[C@H]7C(=O)O)O[C@H]6C(=O)O)O[C@H]5C(=O)O)O[C@H]4C(=O)O)O[C@H]3C(=O)O)O[C@H]2C(=O)O)[C@@H](O)[C@@H](O)[C@@H]1O` (some centres unmarked) [G7]: the “N (number of binding sites)” value came out at 0.8 ± 0.01 site.
